Data published in article PMC4369170 (ACS chemical biology, 2015).

System: pfent1Δ parasites
Test: Efficacy against pfent1Δ parasites
Settings: ratio of IC50 pfent1Δ to IC50 WT Dd2

O=C(Nc1ccc2nc(NC(=O)c3ccco3)sc2c1)c1ccco1 [Compound 1, N,N'-1,3-benzothiazole-2,6-diyldi(2-furamide)]
IC50 in pfent1Δ parasites compared to WT Dd2: 3–4 fold

O=C(Nc1ccc(-c2nc3ncccc3o2)cc1)c1ccccc1Br [Compound 2, 2-bromo-N-(4-[1,3]oxazolo[4,5-b]pyridin-2-ylphenyl)benzamide]
IC50 in pfent1Δ parasites compared to WT Dd2: 3–4 fold

COc1cc(COc2ccc3c(C)cc(=O)oc3c2)cc(OC)c1OC [Compound 3, 4-methyl-7-[(3,4,5-trimethoxybenzyl)oxy] -2H-chromen-2-one]
IC50 in pfent1Δ parasites compared to WT Dd2: 3–4 fold

Cn1cc(C(=O)C(=O)Nc2ccc(C(=O)N3CCCC3)cc2)c2ccccc21 [Compound 5, 2-(1-methyl-1H-indol-3-yl)-2-oxo-N-[4-(pyrrolidin-1-ylcarbonyl)phenyl]acet amide]
IC50 in pfent1Δ parasites compared to WT Dd2: similar
